A mixed list of measured activities; the numbers were collected in NIAID ChemDB.

Shared fields: target-level tests; organism: HIV-1; protein: Integrase; read by: strand transfer; read-out: IC50

ICn is the concentration giving n% inhibition. Two numbers with a dash give a range or band. An empty or dashed field is not shown. Lines come from different laboratories, so protocols vary.

SMILES	strain	value
C[C@H](CCC(=O)Nc1ccc(S(=O)(=O)c2ccc(NC(=O)CC[C@@H](C)[C@H]3CC[C@H]4[C@@H]5CC[C@H]6C[C@@H](O)CC[C@]6(C)[C@H]5CC(O)[C@]34C)cc2)cc1)[C@H]1CC[C@H]2[C@@H]3CC[C@H]4C[C@@H](O)CC[C@]4(C)[C@H]3CC(O)[C@]12C		>100 µM
CN(C)C1C(=O)C(C(=O)NCNCCC(=O)O)=C(O)C2(O)C(=O)C3=C(O)c4c(O)cccc4C(C)(O)C3CC12	RF	2.5 µM
Nc1nc2ccc(NCc3cccc(Oc4ccccc4)c3)cc2[nH]1		93 µM
CCCCC[C@H]1C(C)=C[C@H]2C[C@@H](C)CC[C@@H]2[C@@]1(C)/C(O)=C1/C(=O)[C@@H](CO)N(C)C1=O		7–15 µM
CC(CCN(CCC(C)c1ccccc1)c1ccc2nc(N)[nH]c2c1)c1ccccc1		9.2 µM
C/C=C/C=C/[C@H]1C(C)=CC2C[C@@H](C)CC[C@@H]2[C@@]1(C)/C(O)=C1/C(=O)[C@@H](CO)N(C)C1=O		7–15 µM
CN(C)[C@@H]1C(=O)C(C(=O)NCNC2(C(=O)[O-])CCCC2)=C(O)[C@@]2(O)C(=O)C3=C(O)c4c(O)cccc4[C@@](C)(O)[C@H]3C[C@@H]12.[Na+]	RF	2.1 µM
Nc1ccc2nc(N)[nH]c2c1		170 µM
NC(N)=Nc1ccc(S(=O)(=O)c2ccc(N=C(N)N)cc2)cc1		>100 µM
CN(C)[C@@H]1C(=O)C(C(=O)NCNC(CO)(CO)CO)=C(O)[C@@]2(O)C(=O)C3=C(O)c4c(O)cccc4[C@@](C)(O)[C@H]3C[C@@H]12.Cl	RF	0.5 µM
O=[N+]([O-])c1cccc([N+](=O)[O-])c1S(=O)(=O)c1ccccc1		>100 µM
O/N=C1\C(=C\c2ccc3c(c2)OCCO3)CCCC1C(NO)c1ccc2c(c1)OCCO2	RF	200 µM
Nc1ccc(S(=O)(=O)c2ccc(N)c([N+](=O)[O-])c2)cc1[N+](=O)[O-]		100 µM
N=C(N)c1ccc2cc(C#Cc3ccc(CN)cc3)ccc2c1		300 µM
CSCC[C@H](NCC(=O)Nc1ccc(S(=O)(=O)c2ccc(NC(=O)CN[C@@H](CCSC)C(=O)O)cc2)cc1)C(=O)O		>100 µM
CN(C)C1C(=O)C(C(=O)NCNc2cccc(C(=O)O)c2C(=O)O)=C(O)C2(O)C(=O)C3=C(O)c4c(O)cccc4[C@](C)(O)[C@@H]3C[C@H]12	RF	1.1 µM
N=C(N)c1ccc2cc(C3C[C@H]3c3ccc4c(c3)C(CC3CCCCC3)=NCC4)ccc2c1		21 µM
CO[C@H]1/C=C/O[C@@]2(C)Oc3c(C)c(O)c4c(O)c(c(/C=N/N5C(C)CN(Cc6ccc([N+](=O)[O-])cc6)CC5C)c(O)c4c3C2=O)NC(=O)/C(C)=C\C=C\[C@H](C)[C@H](O)[C@@H](C)[C@@H](O)[C@@H](C)[C@H](OC(C)=O)[C@@H]1C	RF	19.7 µM
O=C(CCl)Nc1ccc(S(=O)(=O)c2ccc(NC(=O)CCl)cc2)cc1		46.5 µM

A second listing of 2 rows from above:

SMILES	strain	value
CO[C@H]1/C=C/O[C@@]2(C)Oc3c(C)c(O)c4c(O)c(c(/C=N/N5C(C)CN(Cc6ccc([N+](=O)[O-])cc6)CC5C)c(O)c4c3C2=O)NC(=O)/C(C)=C\C=C\[C@H](C)[C@H](O)[C@@H](C)[C@@H](O)[C@@H](C)[C@H](OC(C)=O)[C@@H]1C	RF	19.7 µM
N=C(N)c1ccc2cc(C#Cc3ccc(CN)cc3)ccc2c1		300 µM